Reference: US20130012506A1 (priority 2010, published 2013)

Tested on: M. tuberculosis H37Rv
Test: Frequency of spontaneous resistance on 7H10 agar
Assay type: cell-based, Mycobacterium tuberculosis

NNC(=O)c1ccncc1 [INH, isoniazid]
colonies (10 μg/ml, inoculum 10^6 CFU): — | colonies (10 μg/ml, inoculum 10^7 CFU): 4 | colonies (10 μg/ml, inoculum 10^8 CFU): 18

O=c1c(CO)c(Nc2cccc(Cl)c2)nc2c(F)cccn12 [compound 264, 2-(3-Chlorophenylamino)-9-fluoro-3-(hydroxymethyl)-4H-pyrido[1,2-a]pyrimidin-4-one]
Frequency of resistance (0.4 μg/ml): 3.4×10^−6 | colonies (0.4 μg/ml, inoculum 10^6 CFU): — | colonies (0.4 μg/ml, inoculum 10^7 CFU): 37 | colonies (0.4 μg/ml, inoculum 10^8 CFU): 306 | colonies (0.8 μg/ml, inoculum 10^6 CFU): — | colonies (0.8 μg/ml, inoculum 10^7 CFU): 5 | colonies (0.8 μg/ml, inoculum 10^8 CFU): 117 | colonies (1.6 μg/ml, inoculum 10^6 CFU): — | colonies (1.6 μg/ml, inoculum 10^7 CFU): — | colonies (1.6 μg/ml, inoculum 10^8 CFU): 22 | Frequency of resistance (3.2 μg/ml): 2×10^−8 | colonies (3.2 μg/ml, inoculum 10^6 CFU): — | colonies (3.2 μg/ml, inoculum 10^7 CFU): — | colonies (3.2 μg/ml, inoculum 10^8 CFU): 2
